Structure probing of HIV-1 leader RNA with DMS

Data from the supplement of Ye et al. 2022, doi:10.1038/s41594-022-00746-2.

Sequence of the HIV-1 NL4-3 5' RNA, positions 1 to 437, as numbered in the source:
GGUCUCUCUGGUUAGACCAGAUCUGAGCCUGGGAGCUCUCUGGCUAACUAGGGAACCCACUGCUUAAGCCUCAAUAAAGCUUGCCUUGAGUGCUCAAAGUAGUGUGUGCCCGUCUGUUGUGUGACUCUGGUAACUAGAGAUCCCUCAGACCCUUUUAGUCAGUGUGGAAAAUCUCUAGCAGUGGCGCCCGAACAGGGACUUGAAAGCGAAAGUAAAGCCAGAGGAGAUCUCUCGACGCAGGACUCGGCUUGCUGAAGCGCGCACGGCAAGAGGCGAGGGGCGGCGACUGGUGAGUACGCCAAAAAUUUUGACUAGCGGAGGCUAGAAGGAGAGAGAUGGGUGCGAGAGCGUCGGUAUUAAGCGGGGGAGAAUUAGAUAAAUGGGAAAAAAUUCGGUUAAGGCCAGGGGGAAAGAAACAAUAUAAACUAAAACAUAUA

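Mutant RNA libraries with 1G, 2G or 3G starts, with or without cap, were folded at 37 °C for 30 min. Monomer and dimer bands were cut from native gels after folding in high salt (300 mM KCl, 5 mM MgCl2) or low salt (40 mM KCl, 0.1 mM MgCl2). Gel slices were treated with 170 mM dimethyl sulfate for 15 min at 37 °C and read by mutational profiling against an ethanol control.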

Values are winsor-normalised DMS reactivities of A and C; higher means more reactive, usually unpaired.
One numbering serves 1G, 2G and 3G.
A position is written with its base.

A149 (domain PBS) gave 2G uncapped low-salt dimer 0.07; 1G capped high-salt monomer 0.11; 2G uncapped high-salt dimer 0.07. C150 (domain PBS) read 2G uncapped low-salt dimer 0.04; 1G capped high-salt monomer 0.07; 2G uncapped high-salt dimer 0.04. For C151 (domain PBS) the result was 2G uncapped low-salt dimer 0.70; 1G capped high-salt monomer 0.79; 2G uncapped high-salt dimer 0.65. With C152 (domain PBS) the assay gave 2G uncapped low-salt dimer 0.87; 1G capped high-salt monomer 0.85; 2G uncapped high-salt dimer 0.82. A157 (domain PBS) read 2G uncapped low-salt dimer 0.96; 1G capped high-salt monomer 0.93; 2G uncapped high-salt dimer 0.93. For C160 (domain PBS) the result was 2G uncapped low-salt dimer 0.05; 1G capped high-salt monomer 0.05; 2G uncapped high-salt dimer 0.04. For A161 (domain PBS) the result was 2G uncapped low-salt dimer 0.48; 1G capped high-salt monomer 0.49; 2G uncapped high-salt dimer 0.45. A168 (domain PBS) read 2G uncapped low-salt dimer 0.47; 1G capped high-salt monomer 0.44; 2G uncapped high-salt dimer 0.41. With A169 (domain PBS) the assay gave 2G uncapped low-salt dimer 0.75; 1G capped high-salt monomer 0.72; 2G uncapped high-salt dimer 0.65.

With A170 (domain PBS) the assay gave 2G uncapped low-salt dimer 0.49; 1G capped high-salt monomer 0.56; 2G uncapped high-salt dimer 0.52. A171 (domain PBS) read 2G uncapped low-salt dimer 0.47; 1G capped high-salt monomer 0.47; 2G uncapped high-salt dimer 0.44. For C173 (domain PBS) the result was 2G uncapped low-salt dimer 0.04; 1G capped high-salt monomer 0.04; 2G uncapped high-salt dimer 0.03. With C175 (domain PBS) the assay gave 2G uncapped low-salt dimer 0.04; 1G capped high-salt monomer 0.04; 2G uncapped high-salt dimer 0.03. A177 (domain PBS) read 2G uncapped low-salt dimer 0.25; 1G capped high-salt monomer 0.25; 2G uncapped high-salt dimer 0.25. For C179 (domain PBS) the result was 2G uncapped low-salt dimer 0.84; 1G capped high-salt monomer 0.76; 2G uncapped high-salt dimer 0.78. A180 (domain PBS) gave 2G uncapped low-salt dimer 0.60; 1G capped high-salt monomer 0.54; 2G uncapped high-salt dimer 0.58. For C185 (domain PBS) the result was 2G uncapped low-salt dimer 0.47; 1G capped high-salt monomer 0.43; 2G uncapped high-salt dimer 0.41. C187 (domain PBS) gave 2G uncapped low-salt dimer 0.04; 1G capped high-salt monomer 0.04; 2G uncapped high-salt dimer 0.03.

C188 (domain PBS) gave 2G uncapped low-salt dimer 0.08; 1G capped high-salt monomer 0.07; 2G uncapped high-salt dimer 0.07. C189 (domain PBS) gave 2G uncapped low-salt dimer 0.13; 1G capped high-salt monomer 0.11; 2G uncapped high-salt dimer 0.10. A191 (domain PBS) read 2G uncapped low-salt dimer 0.39; 1G capped high-salt monomer 0.41; 2G uncapped high-salt dimer 0.41. For A192 (domain PBS) the result was 2G uncapped low-salt dimer 0.75; 1G capped high-salt monomer 0.81; 2G uncapped high-salt dimer 0.68. With C193 (domain PBS) the assay gave 2G uncapped low-salt dimer 0.81; 1G capped high-salt monomer 0.82; 2G uncapped high-salt dimer 0.73.

Excerpt, the final 2 entries:

position	domain	2G uncapped low-salt dimer	1G capped high-salt monomer	2G uncapped high-salt dimer
A192	PBS	0.75	0.81	0.68
C193	PBS	0.81	0.82	0.73